A mixed list of measured activities; the numbers were collected in NIAID ChemDB.

All rows: cytotoxicity tests; endpoint: CC50

Blank or dashed fields: not listed here. Lines come from different laboratories, so protocols vary. CCn: concentration that lowers growth or viability of the cells by n%. Two numbers with a dash give a range or band.

structure,cell line,read by,value
COC(=O)N[C@@H](Cc1ccccc1Cl)C(=O)N[C@H](CCC[C@@H](CO)N(CC(C)C)S(=O)(=O)c1ccc(CO)cc1)C1CC1,T lymphoid cells,microscopy,>10 µM
Nc1nc(N)c2cc3c(nc2n1)CCc1ccccc1-3,SK-5,MTT,16.2 µM
NC(=S)Nc1cccc(OCCCCOc2cccc3ccccc23)c1,Ava5-EG(delta4AB)SEAP,MTS,>1 µM
CCC1(Cc2ccccc2)OS(=O)(=O)C=C1OCC#N,HEL fibroblasts,-,>200 µM
CNC(=S)N=Nc1c(O)[nH]c2ccccc12,hRD,-,>25 µM
CCOC(=O)[C@@]1(C)CC[C@]2(C)CC[C@]3(C)C(=CC(=O)[C@@H]4[C@@]5(C)CC/C(=N\OCc6cccc(Br)c6)C(C)(C)[C@@H]5CC[C@]43C)[C@@H]2C1,K562,MTT,86.53 µM
COc1ccc(OC)c(Cc2cc(C3CCN(C(=O)c4ccc5c(c4)OCO5)CC3)nc(N)n2)c1,Jurkat cells (PMA-stimulated),-,0.2 µM
CCOC(=O)COc1ccc(CO)cc1,BJ,-,>20 µM
Nc1nc2c(sc(=O)n2C/C=C\CO)c(=O)[nH]1,KB cells (growing),-,>100 µM
CCOC(OCC)C(=O)NCCc1ccc(OC)c(OC)c1,RAJI,-,<7.5 µM
Nc1cccc(-c2cccc(Cc3cc(=O)n(O)c4ncccc34)c2)c1,HeLa,-,<100 µM
CCCNC(=S)Nc1ccc2c(c1)Cc1cc(Br)ccc1-2,Ava5-EG(delta4AB)SEAP,MTS,>1 µM
Cc1cc(NCCN2CCOCC2)c2ccc3c(ccc4c(NCCN5CCOCC5)cc(C)nc43)c2n1,Macrophage line RAW 264.7,MTT,0.00984 µM
Nc1nc2c(ncn2COC(CO)CO)c(=O)[nH]1,IM9,-,35–72 µM
CCOC(=O)C1=C(CN2CC(F)(F)[C@H]3[C@@H]2CCN3C[C@@H](F)C(C)(C)C(=O)O)NC(c2nc(C)cs2)=N[C@H]1c1ccc(F)c(F)c1F,HepG2.2.15,WST / absorbance,19.7 µM
CNS(=O)(=O)c1cccc(-c2cc(=O)n(O)c3ncccc23)c1,HeLa,-,<100 µM
CCOC(=O)[C@@]1(C)CC[C@]2(C)CC[C@]3(C)C(=CC(=O)[C@@H]4[C@@]5(C)CC/C(=N\OCc6cccc(C)c6)C(C)(C)[C@@H]5CC[C@]43C)[C@@H]2C1,K562,MTT,78.1 µM
CN(C)CCCN1CCN(c2cccc(-c3cc(=O)n(O)c4ncccc34)c2)CC1,HeLa,-,<100 µM
CCCN([C@H](CO)CCC[C@H](C)NC(=O)[C@@H](NC(=O)OC)C(c1cccc(F)c1)c1cccc(F)c1)S(=O)(=O)c1ccc(N)cc1,T lymphoid cells,microscopy,>10 µM
C[C@H](O)Cc1cc2c(O[C@H]3O[C@H](CO)[C@@H](O)[C@H]3O)ccc(O)c2c(=O)o1,HL-60,MTT,>40 µg/mL
Nc1nc(=O)n([C@H]2C[C@H](O)[C@@H](CO)O2)cc1/C=C/Cl,OMK,cell count,278 µM
Cc1cccc(CNC(=O)NCCc2ccc3c(n2)NCCC3)c1,PBMC,-,50 µM
CCN([C@H](CO)CCC[C@@H](NC(=O)[C@@H](NC(=O)OC)C(c1ccccc1)c1ccccc1)C1CC1)S(=O)(=O)c1ccc(CO)cc1,T lymphoid cells,microscopy,>10 µM
O=C(c1c[nH]c2ccccc12)[C@H](O)CO,A-594,MTT,>40 µg/mL
CCNC(=S)Nc1ccc2c(c1)Cc1cc(Br)ccc1-2,Ava5-EG(delta4AB)SEAP,MTS,>1 µM
COc1ccc(NC(=O)NCCc2ccc3c(n2)NCCC3)cc1,PBMC,-,1.6 µM
CCOC(=O)CCCCOc1ccccc1NC(C)C,BJ,-,>20 µM
NC(=S)Nc1cccc(OCCCCCCOc2ccccc2)c1,Ava5-EG(delta4AB)SEAP,MTS,>1 µM
CCOC(=O)CCNC(=O)NCCc1ccc2c(n1)NCCC2,PBMC,-,50 µM
Nc1nc(-c2ccccc2)cc(C2CCN(C(=O)c3ccc4c(c3)OCO4)CC2)n1,Jurkat cells (PMA-stimulated),-,>5 µM
C=CCCN(Cc1cc(OC)cc(OC)c1)C(=O)CC(C)=O,RAJI,-,<7.5 µM
COc1ccc(Cc2cc(C3CCN(C(=O)c4ccc5ocnc5c4)CC3)nc(N)n2)cc1,Jurkat cells (PMA-stimulated),-,>5 µM
COC(=O)N[C@H](C(=O)N[C@@H](C)CCC[C@@H](CO)N(C1CCC1)S(=O)(=O)c1ccc(CO)cc1)C(c1ccccc1)c1ccccc1,T lymphoid cells,microscopy,>10 µM
O=[N+]([O-])c1cncnc1N1CC[N+]2(CC1)CC[N+]1(CCN(c3ncncc3[N+](=O)[O-])CC1)CC2,K562,-,>369.4 µg/mL
CCOC(=O)[C@@]1(C)CC[C@]2(C)CC[C@]3(C)C(=CC(=O)[C@@H]4[C@@]5(C)CC/C(=N\OCc6cnc(Cl)s6)C(C)(C)[C@@H]5CC[C@]43C)[C@@H]2C1,K562,MTT,8.86 µM
CCCN(Cc1ccc(OCC(=O)O)cc1)C(=O)c1ccc(-c2ccc3c(c2)OCO3)cc1,HEK 293,-,>20 µM
OC[C@H]1O[C@@H](n2c(Br)nc3cc(Cl)c(Cl)cc32)[C@H](O)[C@@H]1O,BFU-E,-,90 µM
CCCn1ccc2c(NC(=O)NCCc3ccc4c(n3)NCCC4)cccc21,PBMC,-,0.53 µM
Oc1[nH]c2ccccc2c1N=NC(=S)Nc1ccc(Br)cc1,hRD,-,>25 µM
CCOC(=O)C1=C(CN2CC(F)(F)[C@@H]3[C@H]2CON3CCC(O)C(C)(C)C(=O)O)NC(c2nccs2)=N[C@H]1c1cccc(F)c1C,HepG2.2.15,WST / absorbance,18.3 µM
CC(C)CCN([C@H](CO)CCC[C@@H](NC(=O)[C@@H](N)C(c1ccc(F)cc1)c1ccc(F)cc1)C1CC1)S(=O)(=O)c1ccc(CO)cc1,T lymphoid cells,microscopy,>10 µM
NC(=S)Nc1cccc(OCCCCCOc2nccc3ccccc23)c1,Ava5-EG(delta4AB)SEAP,MTS,>1 µM
O=C(NCC(F)(F)F)c1c(O)c2cccnc2n(O)c1=O,HeLa,-,<100 µM
Cn1ncc2cc(NC(=O)NCCc3ccc4c(n3)NCCC4)ccc21,PBMC,-,0.7 µM
NC1=NC2C(C=CN2CC(CO)CCO)C(=O)N1,NIH 3T3,cell count,>200 µM
O=C(NCc1ccccc1)c1c(O)c2cccnc2n(O)c1=O,HeLa,-,<100 µM
CCOC(=O)[C@@]1(C)CC[C@]2(C)CC[C@]3(C)C(=CC(=O)[C@@H]4[C@@]5(C)CC/C(=N\OCc6ccc(Cl)cc6)C(C)(C)[C@@H]5CC[C@]43C)[C@@H]2C1,CT26,MTT,14.33 µM
CCCN(CCC)C(=S)N=Nc1c(O)[nH]c2ccccc12,hRD,-,>25 µM
Cc1nc(N2CC[N+]3(CC2)CC[N+]2(CCN(c4nc(C)[nH]c(=O)c4[N+](=O)[O-])CC2)CC3)c([N+](=O)[O-])c(=O)[nH]1,GMK,-,>331.4 µg/mL
COC(=O)N[C@H](C(=O)N[C@H](CCC[C@@H](CO)N(CC(C)C)S(=O)(=O)c1ccc2ncsc2c1)C1CC1)C(c1ccccc1)c1ccccc1,T lymphoid cells,microscopy,>10 µM
NC(=S)Nc1ccc2c(c1)Cc1cc(NC(=O)C3CCCCC3)ccc1-2,Ava5-EG(delta4AB)SEAP,MTS,>1 µM
CCC1(Cc2ccccc2)OS(=O)(=O)C=C1OCc1ccccc1Cl,HEL fibroblasts,-,38 µM
Nc1nc(CCc2ccccc2)cc(C2CCN(C(=O)c3ccc4c(c3)OCO4)CC2)n1,Jurkat cells (PMA-stimulated),-,2.1 µM
CCOC(=O)C1=C(CN2CC(F)(F)[C@@H]3[C@H]2CON3C[C@H](OC)C(C)(C)C(=O)O)NC(c2nccs2)=N[C@H]1c1ccc(F)c(F)c1Cl,HepG2.2.15,WST / absorbance,74.7 µM
O=C(NCCc1ccc2c(n1)NCC(=O)O2)Nc1cccc(F)c1,PBMC,-,50 µM
COc1ccc(-c2cc(C3CCN(C(=O)c4ccc5c(c4)OCO5)CC3)nc(N)n2)cc1,Jurkat cells (PMA-stimulated),-,1.9 µM
Nc1nc(N)c2cc3c(ccc4ccccc43)nc2n1,HCF-7,MTT,8.6 µM
CCOC(=O)C1=C(CN2CC(F)(F)[C@H]3[C@@H]2CCN3C[C@@H](O)C(C)(C)C(=O)O)NC(c2nccs2)=N[C@H]1c1cccc(F)c1C#N,HepG2.2.15,WST / absorbance,19.1 µM
CCOC(=O)[C@@]1(C)CC[C@]2(C)CC[C@]3(C)C(=CC(=O)[C@@H]4[C@@]5(C)CC/C(=N\OCc6ccccc6F)C(C)(C)[C@@H]5CC[C@]43C)[C@@H]2C1,CT26,MTT,21.72 µM
O=[N+]([O-])c1c(Cl)nc(C(F)(F)F)nc1N1CC[N+]2(CC1)CC[N+]1(CCN(c3nc(C(F)(F)F)nc(Cl)c3[N+](=O)[O-])CC1)CC2,L929,-,>261 µg/mL
O=S(=O)([O-])OC[C@@H]1C[C@H](O)[C@@H](OS(=O)(=O)[O-])[C@H](O[C@H]2[C@H](O)[C@@H](O)[C@H](O[C@@H]3OC[C@@H](O[C@H]4[C@@H](OS(=O)(=O)[O-])[C@@H](OS(=O)(=O)[O-])[C@H](O)O[C@@H]4CO)[C@H](O)[C@H]3O)O[C@@H]2CO)O1,P4R5,MTT,>100 µg/mL
CCOC(=O)C1=C(CN2CC(F)(F)[C@H]3[C@@H]2CCN3CC[C@@](C)(O)C(=O)O)NC(c2nccs2)=N[C@H]1c1ccc(F)c(F)c1F,HepG2.2.15,WST / absorbance,39.7 µM
Nc1nc2c(ncn2COC(CO)CO)c(=O)[nH]1,NIH 3T3,cell count,137 µM
CCOC(=O)c1cnc(SC)nc1N1CC[N+]2(CC1)CC[N+]1(CCN(c3nc(SC)ncc3C(=O)OCC)CC1)CC2,K562,-,>72.5 µg/mL
CC(C)n1nccc1NC(=O)NCCc1ccc2c(n1)NCCC2,PBMC,-,0.83 µM
CCCCC(=O)OC1CC(OC(C)C(C)C(O)C(C)C(O)C(C)C2OC(=O)/C=C/CC(O)CC(O)CC(O)CCC(C)C(O)C[C@@]3(O)O[C@H](CC(O)CC(OC(=O)CC(=O)O)CCCC(O)C4OC4C2C)C[C@H](O)[C@H]3O)OC(C)C1O,P-388,-,>100 µg/mL
CCOC(=O)C1=C(CN2CC(F)(F)[C@@H]3[C@H]2CON3C[C@@H](OC)C(C)(C)C(=O)O)NC(c2nccs2)=N[C@H]1c1ccc(F)c(F)c1F,HepG2.2.15,WST / absorbance,41.7 µM
O=c1c(-c2ccc(F)cc2)c(O)c2cccnc2n1O,HeLa,-,<100 µM
O=C(NCCc1ccc2c(n1)NCCC2)NCc1ccccc1F,PBMC,-,50 µM
Nc1nc2c(ncn2CCC(CO)CO)c(=O)[nH]1,RF,cell count,170 µM
Oc1[nH]c2ccc(Cl)cc2c1N=NC(=S)Nc1ccccc1,hRD,-,>25 µM
COC(=O)C1=C2Nc3ccccc3[C@@]23CCN2C[C@]4(C[C@@H]5C[C@]67CCO[C@H]6CCC6NC[C@@]8(c9cccc(OC)c9N(C4)[C@@H]58)[C@@H]67)[C@@H]4OCCC4(C1)[C@H]23,Jurkat cells,absorbance,>56.94 µM
Nc1nc2c(ncn2COC(CO)CO)c(=O)[nH]1,HEL fibroblasts,-,134 µM
CC(C)N(Cc1ccccc1)C(=O)c1ccc(-c2ccc3c(c2)OCO3)cc1,HepG2,-,>20 µM
O=c1cc(NCCc2ccccc2)c2cccnc2n1O,HeLa,-,<100 µM
O=c1[nH]c(=O)n([C@H]2C[C@H](O)[C@@H](CO)O2)cc1-c1ccc(Br)s1,BCBL-1,cell count,>500 µM
Nc1nc(=O)c2ncn([C@@H]3O[C@H](CO)[C@@H](O)[C@H]3O)c2c(=O)[nH]1,Daudi dividing cells,-,>50 µM
CCC1(Cc2ccccc2)OS(=O)(=O)C=C1OC(c1ccccc1)c1ccccc1,HEL fibroblasts,-,>200 µM
O=S(=O)(NCCc1ccc2c(n1)NCCC2)c1cccc(C(F)(F)F)c1,PBMC,-,50 µM
Nc1nc(Cc2ccc(Cl)cc2)cc(C2CCN(C(=O)c3ccc4c(c3)OCO4)CC2)n1,Jurkat cells (PMA-stimulated),-,1.3 µM
CC[C@@H](CCC[C@@H](CO)N(CCC(C)C)S(=O)(=O)c1ccc(N)cc1)NC(=O)C1(NC(=O)OC(C)(C)C)C[C@@H]1c1ccccc1,T lymphoid cells,microscopy,>10 µM
O=c1cc(NCc2cccc(F)c2)c2cccnc2n1O,HeLa,-,<100 µM
Cc1cc(C=O)cc(C)c1Oc1cc(Nc2ccc(C#N)cc2)nc2ccccc12,MDA-MB-231,MTT,15.9 µM

Repeating the first 5 entries:

structure,cell line,read by,value
COC(=O)N[C@@H](Cc1ccccc1Cl)C(=O)N[C@H](CCC[C@@H](CO)N(CC(C)C)S(=O)(=O)c1ccc(CO)cc1)C1CC1,T lymphoid cells,microscopy,>10 µM
Nc1nc(N)c2cc3c(nc2n1)CCc1ccccc1-3,SK-5,MTT,16.2 µM
NC(=S)Nc1cccc(OCCCCOc2cccc3ccccc23)c1,Ava5-EG(delta4AB)SEAP,MTS,>1 µM
CCC1(Cc2ccccc2)OS(=O)(=O)C=C1OCC#N,HEL fibroblasts,-,>200 µM
CNC(=S)N=Nc1c(O)[nH]c2ccccc12,hRD,-,>25 µM